{
  "sequences": {"note": "By UniProt entry, the sequences of proteins in these tests, tags left out. Where a name states a change or a piece, a line headed by the entry shows the natural chain unless it says otherwise. Residues count along the entry.", "UniProt Q96PU5, 494-533": "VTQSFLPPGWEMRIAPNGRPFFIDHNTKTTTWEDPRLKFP", "UniProt Q96PU5, 497-530": "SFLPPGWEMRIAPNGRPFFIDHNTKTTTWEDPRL", "UniProt Q69559": "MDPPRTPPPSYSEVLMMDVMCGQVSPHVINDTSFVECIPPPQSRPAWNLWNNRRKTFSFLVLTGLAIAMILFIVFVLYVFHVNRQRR"},
  "source": "paper PMC9696605",
  "origin": "cited, not measured here",
  "key": {"[1]": {"biological_target": "hNedd4L WW3* (Homo sapiens) (UniProt Q96PU5)"}, "[2]": {"biological_target": "hNedd4L-WW3* WW3* (497-530) (Homo sapiens) (UniProt Q96PU5)", "assay": "ITC"}},
  "note": "pKd: −log10 of the molar value.",
  "data": [
    {"substance": "pU24-6A (from UniProt Q69559)", "values": [
      {"measurement": "pKd", "setting": "[1]", "result": 6.12},
      {"measurement": "pKd", "setting": "[2]", "result": 6.12}
    ]}
  ]
}
